# Test system: red blood cell membranes (RBCMs)
# Experiment: Fluorescence spectroscopy, Laurdan generalized polarization
# Set-up: species or system pig
# Settings: 80 and 100 µM, 37 °C
row,SMILES,change of generalized polarization (GP) of Laurdan probe
1,"C[C@@H](Br)[C@]12CCCC[C@H]1CC(=O)O2 [7a, (−)-(1S,6S,1′R)-1-(1′-Bromoethyl)-9-oxabicyclo[4.3.0]nonan-8-one]",small decrease
2,"C[C@H](Cl)[C@@]12CCCC[C@@H]1CC(=O)O2 [8b, (+)-(1R,6R,1′S)-1-(1′-Chloroethyl)-9-oxabicyclo[4.3.0]nonan-8-one]",slight increase
3,"C[C@@H](Cl)[C@]12CCCC[C@H]1CC(=O)O2 [8a, (−)-(1S,6S,1′R)-1-(1′-Chloroethyl)-9-oxabicyclo[4.3.0]nonan-8-one]",slight increase
4,"C[C@@H](I)[C@]12CCCC[C@H]1CC(=O)O2 [6a, (−)-(1S,6S,1′R)-1-(1′-Iodoethyl)-9-oxabicyclo[4.3.0]nonan-8-one]",slight increase
5,"C[C@H](Br)[C@@]12CCCC[C@@H]1CC(=O)O2 [7b, (+)-(1R,6R,1′S)-1-(1′-Bromoethyl)-9-oxabicyclo[4.3.0]nonan-8-one]",small decrease
6,"C[C@H](I)[C@@]12CCCC[C@@H]1CC(=O)O2 [6b, (+)-(1R,6R,1′S)-1-(1′-Iodoethyl)-9-oxabicyclo[4.3.0]nonan-8-one]",slight increase

# — article PMC7022392, “Chemoenzymatic Synthesis of Enantiomeric, Bicyclic δ-Halo-γ-lactones with a Cyclohexane Ring, Their Biological Activity and Interaction with Biological Membranes” (Biomolecules, 2020)
